Holding throughout (assay): EMSA
In general terms: A gel shift assay detects complexes by their altered migration in electrophoresis.

Data set [1] deals with Bpur-Q75A (Borrelia burgdorferi B31) (UniProt O51076). The note with it: EMSA: 50 mM Tris pH 7.5, 25 mM KCl, 1 mM MgCl2, 100 nM DTT, 10% glycerol, 0.01% Tween 20, 0.1% PMSF; temperature not stated; RNA/ssDNA probes preheated at 56 C; recombinant protein; residues 1-122; label: 5' biotin; single-stranded DNA.
Data set [2] concerns the target Bpur-E63A/S64A (Borrelia burgdorferi B31) (UniProt O51076). The conditions noted are these: EMSA: 50 mM Tris pH 7.5, 25 mM KCl, 1 mM MgCl2, 100 nM DTT, 10% glycerol, 0.01% Tween 20, 0.1% PMSF, temperature not stated, RNA/ssDNA probes preheated at 56 C, recombinant protein, residues 1-122.
For data set [3], the target named is T1, Bpur-ΔN del1-28 (Borrelia burgdorferi B31) (UniProt O51076).
T1 sequence (looked up): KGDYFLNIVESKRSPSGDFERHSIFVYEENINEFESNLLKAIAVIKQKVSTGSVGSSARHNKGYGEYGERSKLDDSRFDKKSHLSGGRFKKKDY
The conditions noted are these: EMSA: 50 mM Tris pH 7.5, 25 mM KCl, 1 mM MgCl2, 100 nM DTT, 10% glycerol, 0.01% Tween 20, 0.1% PMSF; temperature not stated; RNA/ssDNA probes preheated at 56 C; recombinant protein; residues 29-122; label: 5' biotin.

For at least one entry, the source does not settle the construct or the ends of the probe. For some of these results: Where a protein sequence is shown, tags need not be part of it.

With “AATGGAGAGATTTTGGGGAGTTGTTTAAAATTACATTTGCGTTTTGTTAAAATG [Bio-sense-ssDNA]”, the Kd in data set [1] worked out at 279 nM.

Turning to “AATGGAGAGATTTTGGGGAGTTGTTTAAAATTACATTTGCGTTTTGTTAAAATG (double strand) [Bio-dsDNA]”, the dissociation constant (Kd) in data set [2] (label: 5' biotin (one strand)) is 137 nM.

In the case of “AAUGGAGAGAUUUUGGGGAGUUGUUUAAAAUUACAUUUGCGUUUUGUUAAAAUG [Bio-sense-RNA]”, the Kd turned out to be 15 nM in data set [2] (label: 5' biotin) and 12 nM in data set [3].

For orientation: Kd means the equilibrium constant for the complex coming apart.

Source of the values: PMC3764826, “Bpur, the Lyme Disease Spirochete's PUR Domain Protein”.
